Compound potency records, mixed from different reports. Data source: NIAID ChemDB in PubChem.

All rows: tests in culture; organism: Mycobacterium tuberculosis

MIC bound: limit read from a one-dose screen. Inhibition is in % at the dose shown (toxicity tests: loss of growth or viability). Lines come from different laboratories, so protocols vary. ECn: concentration that inhibits the pathogen or its effect by n%. Blank or dashed fields: not listed here. a–b is a range or a potency band. A number after MIC or MFC names an inhibition level or a share of isolates.

{"smiles": "CN1C(=O)[C@]2(CO)NC(=O)[C@@]1(Cc1ccccc1)SS[C@@]1(CO)NC(=O)[C@@](Cc3ccccc3)(SS2)N(C)C1=O", "strain or isolate": "H37Ra", "measure": "MIC", "value": "12.5 µg/mL"}
{"smiles": "CCCCN(CCCC)N=Cc1c2c(O)c3c(O)c(C)c4c(c3c1O)C(=O)[C@@](C)(O/C=C/[C@H](OC)[C@@H](C)[C@@H](OC(C)=O)[C@H](C)[C@H](O)[C@H](C)[C@@H](O)[C@@H](C)/C=C/C=C(/C)C(=O)N2)O4", "strain or isolate": "H37Rv", "measure": "MIC", "value": "0.5 µg/mL"}
{"smiles": "CS[C@@]1(Cc2ccccc2)NC(=O)[C@@](Cc2ccccc2)(SC)NC1=O", "strain or isolate": "H37Ra", "measure": "MIC", "value": "25 µg/mL"}
{"smiles": "N[C@@H]1CONC1=O", "strain or isolate": "H37Ra", "measure": "Mean MIC", "value": "20 µg/mL"}
{"smiles": "NNC(=O)c1ccncc1", "strain or isolate": "H37Rv", "measure": "MIC", "method": "agar", "value": "3.125 µg/mL"}
{"smiles": "O=C(NN=Cc1ccc([N+](=O)[O-])cc1)c1ccccc1Sc1ccccc1", "strain or isolate": "H37Rv", "measure": "MIC90", "method": "resazurin", "value": ">50 µg/mL"}
{"smiles": "CO[C@H]1/C=C/O[C@@]2(C)Oc3c(C)c(O)c4c(O)c(c5c(c4c3C2=O)NC2(CCN(CC(C)C)CC2)N=5)=NC(=O)/C(C)=C\\C=C\\[C@H](C)[C@H](O)[C@@H](C)[C@@H](O)[C@@H](C)[C@H](OC(C)=O)[C@@H]1C", "strain or isolate": "Strain 10", "measure": "MIC", "value": "0.003 µg/mL"}
{"smiles": "CO[C@H]1/C=C/O[C@@]2(C)Oc3c(C)c(O)c4c(O)c(c(/C=N/N5CCN(C)CC5)c(O)c4c3C2=O)NC(=O)/C(C)=C\\C=C\\[C@H](C)[C@H](O)[C@@H](C)[C@@H](O)[C@@H](C)[C@H](OC(C)=O)[C@@H]1C", "strain or isolate": "Erdman", "measure": "MIC", "value": "0.02 µg/mL"}
{"smiles": "Cn1c([N+](=O)[O-])cnc1C=NNC(=O)c1ccccc1Sc1ccccc1", "strain or isolate": "H37Rv", "measure": "MIC90", "method": "resazurin", "value": ">50 µg/mL"}
{"smiles": "Cc1cccn2c(=O)c3cc(C(=O)NCc4ccco4)c(=N)n(CCCO)c3nc12", "strain or isolate": "H37Rv (ATCC 27294)", "measure": "EC50", "value": "45 µg/mL"}
{"smiles": "CC1COc2c(N3CCN(C)CC3)c(F)cc3c(=O)c(C(=O)O)cn1c23", "strain or isolate": "H37Ra", "measure": "Mean MIC", "value": "0.44 µg/mL"}
{"smiles": "COc1cc(/C=C/C=O)cc2c1OC(C)(C)[C@H](O)C2", "strain or isolate": "H37Rv", "measure": "MIC", "value": "55.6 µg/mL"}
{"smiles": "Cc1ccnc(C(N)=Nc2ccc(-c3ccc(-c4ccc(N=C(N)c5cc(C)ccn5)cc4C)o3)c(C)c2)c1", "measure": "MIC", "value": "2 µg/mL"}
{"smiles": "CO[C@H]1/C=C/O[C@@]2(C)Oc3c(C)c(O)c4c(O)c(c(/C=N/N5CCN(C6CCCC6)CC5)c(O)c4c3C2=O)NC(=O)/C(C)=C\\C=C\\[C@H](C)[C@H](O)[C@@H](C)[C@@H](O)[C@@H](C)[C@H](OC(C)=O)[C@@H]1C", "strain or isolate": "H37Rv", "measure": "Median MIC", "value": "0.013 µg/mL"}
{"smiles": "CC1=C(O)C(C)(CCC(C)CCCC(C)C)SC1=O", "strain or isolate": "H37Rv", "measure": "MIC90", "value": "29 µM"}
{"smiles": "NCC[C@H](O)C(=O)N[C@@H]1C[C@H](N)[C@@H](O[C@H]2O[C@H](CN)[C@@H](O)[C@H](O)[C@H]2O)[C@H](O)[C@H]1O[C@H]1O[C@H](CO)[C@@H](O)[C@H](N)[C@H]1O", "strain or isolate": "H37Ra", "measure": "Mean MIC", "value": "0.74 µg/mL"}
{"smiles": "Nc1nc(N)c2c(ccc3c2ccn3Cc2cccc([N+](=O)[O-])c2)n1", "strain or isolate": "H37Rv", "measure": "MIC bound", "method": "resazurin", "value": "<6.25 µg/mL"}
{"smiles": "CC1(C)Oc2ccc(/C=C/C=O)cc2C[C@H]1O", "strain or isolate": "H37Rv", "measure": "MIC", "value": "52.4 µg/mL"}
{"smiles": "C=C/C(C)=C/[C@@]1(C)SC(=O)C(C)=C1O", "strain or isolate": "Isolate M306", "measure": "MIC", "value": "20–40 µg/mL"}
{"smiles": "CO[C@H]1/C=C/O[C@@]2(C)Oc3c(C)c(O)c4c(O)c(c(C=NN5CCCCC5)c(O)c4c3C2=O)NC(=O)/C(C)=C\\C=C\\[C@H](C)[C@H](O)[C@@H](C)[C@@H](O)[C@@H](C)[C@H](OC(C)=O)[C@@H]1C", "strain or isolate": "H37Rv", "measure": "MIC", "value": "0.05 µg/mL"}
{"smiles": "CO[C@H]1/C=C/O[C@@]2(C)Oc3c(C)c(O)c4c(O)c(c(/C=N/N=C/N(C)C)c(O)c4c3C2=O)NC(=O)/C(C)=C\\C=C\\[C@H](C)[C@H](O)[C@@H](C)[C@@H](O)[C@@H](C)[C@H](OC(C)=O)[C@@H]1C", "strain or isolate": "H37Rv", "measure": "MIC", "value": "0.02 µg/mL"}
{"smiles": "CC(C)=CCCC(C)CCC1(C)SC(=O)C(C)=C1O", "strain or isolate": "H37Rv", "measure": "MIC50", "value": "43 µM"}
{"smiles": "CO[C@H]1/C=C/O[C@@]2(C)Oc3c(C)c(O)c4c(O)c(c(/C=N/Nc5ccccc5)c(O)c4c3C2=O)NC(=O)/C(C)=C\\C=C\\[C@H](C)[C@H](O)[C@@H](C)[C@@H](O)[C@@H](C)[C@H](OC(C)=O)[C@@H]1C", "strain or isolate": "H37Rv", "measure": "MIC", "value": "2 µg/mL"}
{"smiles": "O=C(NN=Cc1ccco1)c1ccccc1Sc1ccccc1", "strain or isolate": "H37Rv", "measure": "MIC90", "method": "resazurin", "value": ">50 µg/mL"}
{"smiles": "CC(C)=CCC/C(C)=C/CC1(C)SC(=O)C(C)=C1O", "strain or isolate": "H37Rv", "measure": "MIC90", "value": "200 µM"}
{"smiles": "CO[C@H]1/C=C/O[C@@]2(C)Oc3c(C)c(O)c4c(O)c(c(/C=N/N(C)CCN(C)C)c(O)c4c3C2=O)NC(=O)/C(C)=C\\C=C\\[C@H](C)[C@H](O)[C@@H](C)[C@@H](O)[C@@H](C)[C@H](OC(C)=O)[C@@H]1C", "strain or isolate": "H37Rv", "measure": "MIC", "value": "0.5 µg/mL"}
{"smiles": "CO[C@H]1/C=C/O[C@@]2(C)Oc3c(C)c(O)c4c(O)c(cc(O)c4c3C2=O)NC(=O)/C(C)=C\\C=C\\[C@H](C)[C@H](O)[C@@H](C)[C@@H](O)[C@@H](C)[C@H](OC(C)=O)[C@@H]1C", "strain or isolate": "H37Rv", "measure": "MIC", "value": "0.01 µg/mL"}
{"smiles": "CN[C@@H]1[C@H](O[C@H]2[C@H](O[C@H]3[C@H](O)[C@@H](O)[C@H](N=C(N)N)[C@@H](O)[C@@H]3N=C(N)N)O[C@@H](C)[C@]2(O)C=O)O[C@@H](CO)[C@H](O)[C@H]1O", "strain or isolate": "H37Ra", "measure": "Median MIC", "value": "0.56 µg/mL"}
{"smiles": "COC(=O)c1nc(-c2ccc3c(n2)C(=O)C(N)=C(OC)C3=O)c(N)c(-c2ccc(OC)c(OC)c2O)c1C", "strain or isolate": "H37Rv", "tested at": "12.8 µg/mL", "measure": "inhibition", "method": "BACTEC", "value": "52%"}
{"smiles": "CO[C@H]1/C=C/O[C@@]2(C)Oc3c(C)c(O)c4c(O)c(c(/C=N/N5CCOCC5)c(O)c4c3C2=O)NC(=O)/C(C)=C\\C=C\\[C@H](C)[C@H](O)[C@@H](C)[C@@H](O)[C@@H](C)[C@H](OC(C)=O)[C@@H]1C", "strain or isolate": "H37Rv", "measure": "MIC", "value": "0.2 µg/mL"}

The last 3 rows once more:

smiles,strain or isolate,tested at,measure,method,value
CN[C@@H]1[C@H](O[C@H]2[C@H](O[C@H]3[C@H](O)[C@@H](O)[C@H](N=C(N)N)[C@@H](O)[C@@H]3N=C(N)N)O[C@@H](C)[C@]2(O)C=O)O[C@@H](CO)[C@H](O)[C@H]1O,H37Ra,-,Median MIC,-,0.56 µg/mL
COC(=O)c1nc(-c2ccc3c(n2)C(=O)C(N)=C(OC)C3=O)c(N)c(-c2ccc(OC)c(OC)c2O)c1C,H37Rv,12.8 µg/mL,inhibition,BACTEC,52%
CO[C@H]1/C=C/O[C@@]2(C)Oc3c(C)c(O)c4c(O)c(c(/C=N/N5CCOCC5)c(O)c4c3C2=O)NC(=O)/C(C)=C\C=C\[C@H](C)[C@H](O)[C@@H](C)[C@@H](O)[C@@H](C)[C@H](OC(C)=O)[C@@H]1C,H37Rv,-,MIC,-,0.2 µg/mL